Results of unrelated studies side by side (data: NIAID ChemDB).

All rows: whole-cell or culture tests; species: Human cytomegalovirus; endpoint: EC50

ECn is the concentration giving n% inhibition of infection, replication or growth. Lines come from different laboratories, so protocols vary. An empty or dashed field is not shown. a–b is a range or a potency band.

structure,strain,method,value
CN(C)c1cccc2c(S(=O)(=O)Nc3ccc(NC(=O)C(C)(C)CO)cc3)cccc12,AD169,plaque count,0.44 µM
COc1cc(OC)c(NC(=S)Nc2ccc(NC(=O)c3cnns3)cc2)cc1Cl,-,-,0.15 µM
C=C[C@@](CO)(CCn1cnc2c(N)ncnc21)c1ccccc1,-,-,>100 µg/mL
CN(Cc1ccc([N+](=O)[O-])cc1)C(=O)N1C(=O)C[C@@H]1CSc1nnnn1C,-,plaque count,0.5 µM
CC[C@H]1CCCC[C@H]1Nc1nc(C)c([N+](=O)[O-])c(-n2ccnc2)n1,-,-,0.09 µM
Nc1nc2c(ncn2[C@H]2C=C[C@@H](CO)[C@H](O)C2)c(=O)[nH]1,LY9990,-,0.79 µg/mL
COc1cc(O)c(Cl)cc1NC(=S)Nc1ccc(NC(=O)c2csnn2)cc1,-,-,0.021 µM
CC1(C)OC2C(O1)[C@H](c1cccc3nccn13)O[C@@H]2CO[Si](C)(C)C(C)(C)C,-,plaque count,>100 µM
Cc1nc(NC2Cc3cc(F)c(F)cc3C2)nc(-n2ccnc2)c1[N+](=O)[O-],-,-,0.13 µM
OC[C@H]1O[C@@H](n2c(Br)nc3cc(Cl)c(Cl)cc32)[C@H](O)[C@@H]1O,1117 3-1-2 (CDV-resistant),plaque count,0.53 µM
CCC(C)Nc1ccc(Oc2ccc(OC)cc2)cc1,AD169,plaque count,58 µM
COc1ccc(Oc2ccc(NC3CCCCCC3)cc2)cc1,-,virus yield,30.5 µM
Cc1cc(C)cc(Cn2c(=S)ccn(Cc3ccoc3)c2=O)c1,AD169,-,12 µM
CCC(C)Nc1ccc(Oc2cccc(O)c2)cc1,-,virus yield,32.5 µM
Oc1ccc(Oc2ccc(NC3CCCCCCC3)cc2)cc1,AD169,plaque count,6.7 µM
CC1(C)OC2C(O1)[C@H](c1c(Cl)ccc3nc(Cl)cn13)O[C@@H]2CO[Si](C)(C)C(C)(C)C,-,plaque count,>100 µM
Nc1nc2c(ncn2C[C@@H]2CO[C@H](P(=O)(O)O)O2)c(=O)[nH]1,-,-,45 µg/mL
CC1=CCC/C=C/CC[C@@]2(C)O[C@@H]2C[C@H]2[C@@H](CC(=O)[C@@H]2C)[C@@H]1OC(C(=O)O)(c1ccccc1)C(F)(F)F,-,MTT,5.2 µg/mL
O=c1[nH]c(=O)n([C@@H]2CO[C@H](CO)O2)cc1/C=C/Br,WFI,-,5 µg/mL
COc1cccc(N2CCN(C3=Nc4c(F)cccc4[C@H](CC(=O)O)N3c3cc(C(F)(F)F)ccc3OC)CC2)c1,Clinical isolate 5,plaque count,0.002 µM
CNc1ncnc2c1ncn2[C@H]1S[C@H](CO)C[C@@H]1N=[N+]=[N-],-,-,<100 µg/mL
Nc1nc2c(ncn2COC(CO)CO)c(=O)[nH]1,-,plaque count,1–10 µM
CCOCn1ccc(=O)n(Cc2cc(C)cc(C)c2)c1=O,AD169,-,>170 µM
COc1cc(OC)c(NC(=S)Nc2ccc(NC(=O)c3ccco3)cc2)cc1Cl,50 isolates,plaque count,0.04 µM
CCCC(C)Nc1ccc(Oc2ccc(O)cc2)cc1,XBAF4-3-1 (ganciclovir-resistant),virus yield,0.35 µM
OC[C@H]1O[C@@H](n2c(Cl)nc3cc(Cl)c(Cl)cc32)[C@H](O)[C@@H]1O,-,virus yield,<0.2 µM
OC[C@H]1O[C@@H](n2c(Cl)nc3cc4cc(Cl)c(Cl)cc4cc32)[C@H](O)[C@@H]1O,-,virus yield,9 µM
Nc1ncnc2c1c(Br)cn2COCCO,TOWNE,-,1.6 µM
Cc1cc(C)cc(Cn2c(=O)ccn(Cc3ccco3)c2=O)c1,AD169,-,>64 µM
Nc1nc2c(ncn2C=C2CC2CO)c(=O)[nH]1,VR5406 (ganciclovir-resistant),plaque count,3.3 µM
[N-]=[N+]=N[C@H]1C[C@H](CO)S[C@@H]1n1cnc2c(Cl)ncnc21,-,-,<100 µg/mL
O=c1[nH]c(=O)n([C@@H]2CO[C@@H](CO)S2)cc1/C=C/Br,WFI,-,80 µg/mL
O=C(NCc1ccc(Cl)cc1)c1c[nH]c2c(F)cc(CCCO)cc2c1=O,DAVIS,virus yield,<4.8 µM
O=c1[nH]c(=O)n([C@H]2CO[C@H](CO)S2)cc1/C=C/Br,WFI,-,>100 µg/mL
Cc1cn([C@H]2S[C@H](CO)C[C@H]2N=[N+]=[N-])c(=O)[nH]c1=O,-,-,<100 µg/mL
O=C(NCc1ccc(Cl)cc1)c1c[nH]c2ccc(CCCO)cc2c1=O,AD169,plaque count,0.2 µM
CCc1cn([C@H]2C[C@H](O)[C@@H](CO)O2)c(=O)[nH]c1=O,AD169,cytopathic effect,>390 µM
CCC(C)Nc1ccc(Oc2ccc(O)c(F)c2)cc1,-,virus yield,15 µM
Cn1cc(C(=O)NCc2ccc(Cl)cc2)c(=O)c2cc(CN3CCOCC3)ccc21,9 isolates,plaque count,0.94 µM
CNc1cccc2c(S(=O)(=O)Nc3ccc(NC(=O)C(C)(C)CO)cc3)cccc12,36 isolates,plaque count,1.11 µM
Nc1nc2c(ncn2COC(CO)CO)c(=O)[nH]1,TOWNE,virus yield,<1.4 µM
Cc1nc(N2CCCC[C@@H]2C)nc(-n2ccnc2)c1[N+](=O)[O-],-,-,0.15 µM
OC[C@H]1O[C@H](c2c(Cl)c(Cl)cc3nc(Cl)cn23)[C@H](O)[C@@H]1O,-,plaque count,>100 µM
O=c1[nH]c(=O)n([C@@H]2CO[C@H](CO)S2)cc1/C=C/Br,WFI,-,>100 µg/mL
COC(=O)c1ccc(CN(C)C(=O)N2C(=O)C[C@@H]2CSc2ncccn2)cc1,-,plaque count,3.4 µM
Oc1ccc(Oc2ccc(NC3CCCC3)cc2)cc1,-,virus yield,0.68 µM
O=C(NCc1ccc(Cl)cc1)c1c[nH]c2ccc(C#CCO)cc2c1=O,WAT,plaque count,1.9 µM
O=C(O)P(=O)(O)O,1117 3-1-2 (CDV-resistant),plaque count,52 µM
c1ccc(Sc2ccc(NC3CCCCCC3)cc2)cc1,AD169,plaque count,43 µM
CC(C)=CCn1c(=O)sc2c(=O)[nH]c(N)nc21,TOWNE,plaque count,6.8 µM
OC[C@H]1O[C@@H](n2c(Br)nc3cc(Cl)c(Cl)cc32)[C@H](O)[C@@H]1O,-,virus yield,<1.4 µM
CCC(C)Nc1ccc(Oc2ccc(O)c(F)c2)cc1,AD169,plaque count,15 µM
OC[C@H]1O[C@@H](n2c(Br)nc3cc(Cl)c(Cl)cc32)[C@H](O)[C@@H]1O,C4 (D341E),virus yield,<6.8 µM
[N-]=[N+]=N[C@H]1C[C@H](CO)S[C@@H]1n1cnc2c(N)ncnc21,-,-,<100 µg/mL
C=C1[C@H](CO)[C@H]1Cn1cnc2c(N)ncnc21,-,-,>100 µM
CC(C)C(C)Nc1ccc(Oc2ccc(O)cc2)cc1,-,virus yield,12.4 µM
CN(Cc1ccc(C(F)(F)F)cc1)C(=O)N1C(=O)C[C@@H]1CSc1nnnn1C,-,plaque count,0.8 µM
C[C@@H]1O[C@@H](n2c(Cl)nc3cc(Cl)c(Cl)cc32)[C@H](O)[C@@H]1O,1117 3-1-2 (CDV-resistant),plaque count,0.96 µM
Oc1ccc(Sc2ccc(NC3CCCCCC3)cc2)cc1,AD169,plaque count,12.9 µM
COc1cc(OC)c(NC(=S)Nc2ccc(NC(C)=O)cc2)cc1Cl,16 isolates,virus yield,<0.384 µM
COCCOCn1cc(C(N)=S)c2c(N)ncnc21,-,plaque count,0.4–1 µM
CN(C)c1cccc2c(S(=O)(=O)Nc3ccc(NC(=O)C(C)(C)CO)cc3)cccc12,Ganciclovir-resistant,plaque count,14 µM
Nc1nc2c(ncn2COC(CO)CO)c(=O)[nH]1,AD169,plaque count,11.8 µM
Cc1cc(C)cc(Cn2c(=S)ccn(Cc3ccsc3)c2=O)c1,AD169,-,9.5 µM
Nc1n[nH]c(=O)c2c1ccn2[C@@H]1O[C@H](CO)[C@@H](O)[C@H]1O,TOWNE,plaque count,>100 µM
C=C1[C@H](CO)[C@H]1Cn1cnc2c(=O)[nH]c(N)nc21,-,-,>100 µM
Nc1nc2c(ncn2C[C@]2(CO)C[C@H]2CO)c(=O)[nH]1,-,plaque count,10–100 µM
Cc1nc(N2CCCCC2C)nc(-n2ccnc2)c1[N+](=O)[O-],-,-,0.238 µM
OC[C@H]1O[C@@H](c2c(Cl)ccc3nc(Cl)cn23)[C@H](O)[C@@H]1O,-,plaque count,>100 µM
Cc1cn([C@@H]2S[C@H](CO)C[C@H]2N=[N+]=[N-])c(=O)[nH]c1=O,-,-,<100 µg/mL
CC(=O)O[C@]1(c2c(Cl)ccc3nc(Cl)cn23)O[C@H](CO[Si](C)(C)C(C)(C)C)C2OC(C)(C)OC21,-,plaque count,>100 µM
CCC(C)Nc1ccc(Oc2ccccc2)cc1,-,virus yield,>100 µM
CCC(C)Nc1ccc(Oc2cccc(O)c2)cc1,AD169,plaque count,32.5 µM
C=C1[C@H](CO)[C@H]1Cn1cnc2c(Cl)nc(N)nc21,-,-,>100 µM
NC1=NC2C(C=CN2CC(CO)CCO)C(=O)N1,-,plaque count,10–100 µM
Nc1ccn(C[C@H](CO)OCP(=O)(O)O)c(=O)n1,-,-,0.28 µM

The last 6 rows once more:

CC(=O)O[C@]1(c2c(Cl)ccc3nc(Cl)cn23)O[C@H](CO[Si](C)(C)C(C)(C)C)C2OC(C)(C)OC21 ; method: plaque count ; value: >100 µM
CCC(C)Nc1ccc(Oc2ccccc2)cc1 ; method: virus yield ; value: >100 µM
CCC(C)Nc1ccc(Oc2cccc(O)c2)cc1 ; strain: AD169 ; method: plaque count ; value: 32.5 µM
C=C1[C@H](CO)[C@H]1Cn1cnc2c(Cl)nc(N)nc21 ; value: >100 µM
NC1=NC2C(C=CN2CC(CO)CCO)C(=O)N1 ; method: plaque count ; value: 10–100 µM
Nc1ccn(C[C@H](CO)OCP(=O)(O)O)c(=O)n1 ; value: 0.28 µM